## Library screen at single concentrations

Each number is a percent effect as filed. The record does not define 0% and 100%; most values in the screen are far below 50% and negative numbers occur (in some assays of this library far below -100). The entries come from a sample that favours strong results. Two or more numbers in one place are separate tests of the same structure; such repeats can differ widely.

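Growth of Mycobacterium tuberculosis over 3 days (7H9 medium with glucose and tyloxapol); the read-out is not stated. Concentration: 50 µM. Direction is inferred from retests: higher values go with more growth inhibition. About 69,000 compounds were tested under these conditions; 1.1% (about 760) showed 50% or more at least once.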

COCCO[C@H]1COCCN(Cc2ccc(OC)cc2)C1 read 11.05% and -1.201%.
OCCN1CCC(F)(F)C2(CCN(c3cccnc3)C2)C1 (stereo not drawn) read -25.35%.
CC(CN1CCOCC1)NC(=O)c1cc(Cl)c2c(c1)OCCO2 (stereo not drawn) read 21.89%.
Cc1cccc(-c2ccc(C(=O)N3CCSCC3)c(=O)[nH]2)c1 read 27% and 73.18%.
c1cnn(CC2CN(c3ncnc4c3CCC4)CCO2)c1 (stereo not drawn) read 50.79% and 3.236%.
CS(=O)(=O)c1cccc2c1CCCN2C(=O)Cc1cccc(F)c1 read 17.26%.
Cc1nc(-c2ccc(C(=O)O)cc2)cc(C2CCN(C(C)C)C2)n1 (stereo not drawn) read 8.179%.
CCOc1ccc(C(=O)NCc2ccnc(N3CCN(C)CC3)c2)cn1 read 6.504% and -1.057%.
COCCNC(=O)Nc1ccc(F)c(C(N)=O)c1 read 0.667%.
COc1cc(CNc2nc(C3CC3)no2)cc(OC)c1OC read 20.34%.
CC(C)Cc1nc(CN(C)CCOc2ccc(F)cc2)no1 read 35.42%.
CC(C)c1nc(CN2CCCCC2)cs1 read -4.206%.
c1nc(CCNc2nc(C3CC3)nc3c2CCNCC3)c[nH]1 read 21.08% and 15.54%.
CCN(C(=O)CN1CCCC1Cc1ccccc1)c1ccccc1 (stereo not drawn) read 38.73% and 35.51%.
CC(C)c1noc(CN2CCN(C(=O)c3ccc(F)cc3)CC2)n1 read 113.1% and -3.961%.
OCCN(Cc1ccccc1)Cc1nc(-c2ccc3c(c2)OCO3)no1 read 7.536%.
O=C(NCC1CCOC1)c1cc(-c2cccc(Cl)c2)on1 (stereo not drawn) read -1.815%.
Cc1cc(C(=O)N2CCN(c3nc4c(C)cccc4s3)CC2)no1 read 26.49%.
Cc1ccc(C)c(S(=O)(=O)NCCNc2ccc(-n3cccc3)nn2)c1 read 26.13% and 16.51%.
CN1CCC(N(C)CCC(=O)N2CCC(CCc3ccccc3)CC2)C1 (stereo not drawn) read 63.4%.
O=C1CNc2ncnc(N3CCN(c4ccccc4F)CC3)c2N1 read 96.61%.
NCC1CCN(C2CCN(c3ccc(-c4ccco4)cc3)CC2)C1 (stereo not drawn) read 38.7% and 53.61%.
OCC(O)CSCc1nnc(-c2ccc(Cl)cc2)o1 (stereo not drawn) read 27.1%.
Cc1cc(C2CCC2)nc(N2CCC3(CCCNC3=O)C2)n1 (stereo not drawn) read 3.621%.
COc1cccc(-c2nc(CNC(C)Cn3cccn3)cs2)c1 (stereo not drawn) read -41.98%.
CS(=O)(=O)c1cccc(C(N)c2ccc(Cl)cc2)c1 (stereo not drawn) read 10.85%.
Cc1ccnc(NC(=O)C2(n3cnnn3)CCCCC2)c1 read 17.77%.
Cc1ccc(CNc2cc3[nH]c(O)nc3cc2C)cc1 read 19.23% and 24.23%.
CCCC(=O)N1CCC2(CC1)OCCO2 read -6.475%.
Cc1nc(C(=O)N(C)CC(F)(F)C(F)(F)F)c2ccccn12 read -1.789% and 63.2%.
COc1cccc(CNCCNS(=O)(=O)Cc2ccccc2)c1 read -1.363% and -13.47%.
Cc1c(F)cccc1S(=O)(=O)NCCN.Cl read 31.37% and -0.09832%.
CN(C)CC1(O)CCN(S(=O)(=O)c2ccc(Cl)cc2)C1 (stereo not drawn) read -4.569%.
O=C(O)C(F)(F)F.[H][C@@]12OCCN(C(=O)COc3ccccc3)[C@@]1([H])CC[C@H]2OCCN(C)C read -27.88%.
O=S(=O)(CCc1ccccc1Cl)CC(O)CO (stereo not drawn) read -7.157% and -6.903%.
CCC(=O)Nc1nnc2n(Cc3cccc(OC)c3)[nH]c(C)c1-2 read 19.7% and 111.3%.

The first 4 entries again:

compound	effect
COCCO[C@H]1COCCN(Cc2ccc(OC)cc2)C1	11.05 and -1.201
OCCN1CCC(F)(F)C2(CCN(c3cccnc3)C2)C1 (stereo not drawn)	-25.35
CC(CN1CCOCC1)NC(=O)c1cc(Cl)c2c(c1)OCCO2 (stereo not drawn)	21.89
Cc1cccc(-c2ccc(C(=O)N3CCSCC3)c(=O)[nH]2)c1	27 and 73.18

From ChEMBL document CHEMBL3988442, “University of Dundee, Small-Polar-MMV Screening Library” (2021).